PSTVd stem 3 mutant pool in Nicotiana benthamiana

PSTVd intermediate strain, stem 3: wild type GUGGUUCCGGAACCGC, pool pattern GUGGUUCCGNANNCNN; upper and lower strand joined, each 5' to 3', the first 8 letters being the upper strand.

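A pool of all variants was put on leaves of three Nicotiana benthamiana plants. Progeny were sequenced from the inoculated region (day 5), the margin of the inoculated leaf (day 10) and systemic leaves (day 12).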

Values are reads per thousand in the sample; higher means more abundant, 0 means not found. Each value is the mean of three plants. "Pool" is the share in the plasmid pool used as inoculum, on the same scale. The inoculated region was read from the minus strand, the other sites from the plus strand. IR is the inoculated region, LM the leaf margin, Sys the systemic leaves. Samples held 27,691 to 54,225 reads, so the smallest values rest on one or two reads. Sequences that differ at fixed positions probably stem from PCR or sequencing errors, and defective variants can be carried along by functional ones. For reference, wild type rose from 17.3 per thousand in the pool to 330, 345, 235 (inoculated region), 794, 766, 816 (leaf margin) and 830, 792, 869 (systemic leaves).

For GUGGUUCCGCACGCGG (pool 1.02) the result was IR 0.329; LM 0.0106; Sys 0. For GUGGUUCCGUAUACUU (pool 1.25) the result was IR 0.603; LM 0.0226; Sys 0.0186. For GUGGUUCCGUAUCCUG (pool 0.600) the result was IR 0.283; LM 0.0215; Sys 0. GUGGUUCCGCACACCU (pool 1.15) read IR 0.458; LM 0.00944; Sys 0. GUGGUUCCGUACACAG (pool 0.769) gave IR 0.254; LM 0; Sys 0. With GUGGUUCCGCAUACUG (pool 1.54) the assay gave IR 0.729; LM 0.0212; Sys 0.118. With GUGGUUCCGCACUCGU (pool 1.46) the assay gave IR 0.980; LM 0.0120; Sys 0.0249. GUGGUUCCGUAUACUC (pool 1.06) read IR 0.353; LM 0.0226; Sys 0.0311. GUGGUUCCGCAGUCUC (pool 0.769) read IR 0.645; LM 0.156; Sys 0.

GUGGUUCCGCAAACGA (pool 0.893) read IR 0.294; LM 0; Sys 0. With GUGGUUCCGCAUACAG (pool 0.723) the assay gave IR 0.323; LM 0.00944; Sys 0. For GUGGUUCCGAAUGCUC (pool 1.05) the result was IR 0.380; LM 0.0120; Sys 0. GUGGUUCCGAAAACCU (pool 0.862) gave IR 0.696; LM 0.0226; Sys 0.00621. For GUGGUUCCGAACUCCG (pool 0.862) the result was IR 0.704; LM 0.0120; Sys 0. With GUGGGUCCGGACCCCG (pool 0.0154) the assay gave IR 0; LM 0; Sys 0. GUGGUUCCGUAACCGU (pool 0.877) gave IR 0.370; LM 0.0106; Sys 0. With GUGGUUCCGUAGUCGU (pool 0.985) the assay gave IR 1.35; LM 0.213; Sys 0.919. GUGGUUCCGUAACCGG (pool 0.923) gave IR 0.337; LM 0.0212; Sys 0.

For GUGGUUCCGUAUGCCG (pool 0.816) the result was IR 0.309; LM 0.0189; Sys 0. With GUGGUUCCGGAAGCUC (pool 0.769) the assay gave IR 0.351; LM 0.0241; Sys 0.0124. GUGGGUCCGAAUCCGC (pool 0.0154) gave IR 0; LM 0; Sys 0. GUGGUUCCGCACGCGC (pool 0.800) gave IR 0.315; LM 0.0309; Sys 0. GUGGUUCCGGACGCGU (pool 0.893) read IR 0.254; LM 0.0120; Sys 0. With GUGGCUCCGUAUGCGA (pool 0.0154) the assay gave IR 0; LM 0; Sys 0. GUGGUUCCGGAUGCGA (pool 2.39) read IR 0.841; LM 0.0241; Sys 0.0124. With GUGGUUCCGUAAUCGU (pool 0.754) the assay gave IR 0.767; LM 0.0937; Sys 0. With GUGGUUCCGCAGGCCC (pool 0.785) the assay gave IR 0.309; LM 0.0347; Sys 0.

With GUGGUUCCGUAAACUU (pool 1.37) the assay gave IR 0.772; LM 0; Sys 0.0267. GUGGUUCCGUAACCCC (pool 0.754) read IR 0.358; LM 0.00944; Sys 0. GUGGUUCCGGAUCCUA (pool 1.54) gave IR 0.909; LM 0.0120; Sys 0.0559. For GUGGUUCCGAAUCCCU (pool 0.970) the result was IR 0.791; LM 0.502; Sys 0.

The last 2 entries again:

| sequence | pool | IR | LM | Sys |
|---|---|---|---|---|
| GUGGUUCCGGAUCCUA | 1.54 | 0.909 | 0.0120 | 0.0559 |
| GUGGUUCCGAAUCCCU | 0.970 | 0.791 | 0.502 | 0 |

Source: Wu et al. 2024 (doi:10.1371/journal.ppat.1012142), supplementary data.